Laboratory results taken from US9073966B2, “Inhibition of sweat malodor” (Firmenich SA, priority 2005, dated 2015).
Entries after “also recorded” stand apart in the source; their conditions may differ.

System: St. haemolyticus, C. xerosis and St. epidermidis
Assay: Bioconversion of synthesized precursors into (R/S)-3-methyl-3-sulfanyl-hexane-1-ol by bacterial strains
Type: cell-based
Conditions: bacteria incubated with precursor at 35-37° C., up to 18 hours; GC-AED

For `CCCC(C)(CCO)SC[C@H](N)C(=O)NCC(=O)O` (stereo partly drawn) [Compound 9, (2R)—S-[1-(2-hydroxyethyl)-1-methylbutyl]-Cys-Gly], the “conversion of precursor into malodorous compound 1 (chemical yield of 1)” value was “always a better chemical yield compared to 11; also recorded: more efficiently converted into the malodorous compound 1; also recorded: efficiently converted by all strains”.
